Measured values from several laboratories, pooled; numbers as filed in NIAID ChemDB.

Shared fields: tests in culture; species: Mycobacterium smegmatis; read-out: MIC

Neighbouring rows are from separate reports.

structure	read by	strain	changes	result
CNC1CCN(CCCCn2ccc(Nc3ccc(CNCCCN)cn3)nc2=O)CC1	turbidity			32–128 µg/mL
CSCC[C@H](NS(=O)(=O)c1ccc(C)cc1)C(=O)N/N=C(\C)C12CC3CC(CC(C3)C1)C2	broth dilution / visual reading	ATCC 607		132.5 µg/mL
O=C1CCC(=O)N(O)CCCCCNC(=O)CCC(=O)N(O)CCCCCNC(=O)CCC(=O)N(O)CCCCCN1	MTT	mc2155		>160 µM
CCCC[C@@H](CN[C@@H](CN)CCCCNC)NCc1cccc2ccccc12	absorbance	mc2155		50 µM
CC1CN(c2cc3c(=O)c(C(=O)O)c4n(c3cc2F)CS4)CC(C)O1	agar	ATCC 14468		68.61 µM
CCCCCCCCCCCCCCCCCCCCCC(=O)NC(CCC(=O)O)(CCC(=O)O)CCC(=O)O		mc155		27 µg/mL
O=C(O)c1c2n(c3cc(N4CCC(O)(c5ccc(Cl)cc5)CC4)c([N+](=O)[O-])cc3c1=O)CS2	agar	ATCC 14468 MC2		6.42 µM
CSCC[C@H](NS(=O)(=O)c1ccc(C)cc1)C(=O)N/N=C/c1cc2c(cc1[N+](=O)[O-])OCO2	broth dilution / visual reading	ATCC 607		>250 µg/mL
CN(C)C(=O)CC(CSc1ccccc1)Nc1c(C(=O)N/N=C/c2ccc(OC(F)(F)F)cc2)cnc2cccc(C(F)(F)F)c12	resazurin	ATCC 19420		>100 µg/mL
COc1c(N2CCNC(C)C2)c(F)cc2c(=O)c(C(=O)O)cn(C3CC3)c12	agar	ATCC 14468 MC2		2.08 µM
CCCCCCCCO[C@@H]1OC(CO)[C@H](O)[C@H](O)C1O	absorbance	mc2155		>2 µM
O=C(O)c1c2n(c3cc(N4CCC(n5c(=O)[nH]c6cc(Cl)ccc65)CC4)c(F)cc3c1=O)CS2	agar	ATCC 14468 MC2		49.91 µM
CC(C)(C)NC(=O)C1c2ccccc2CCN1c1cc2c(=O)c(C(=O)O)c3n(c2cc1F)CS3	agar	ATCC 14468		51.92 µM
Cc1ccc(-n2sc(=O)n(Cc3ccc(F)cc3)c2=O)cc1	broth dilution	mc2155		25 µg/mL
NCC(=O)c1ccc(Nc2ccn(CCCCN3CCC(N)CC3)c(=O)n2)nc1	turbidity			8–32 µg/mL
COc1c(N2CCSCC2)c(F)cc2c(=O)c(C(=O)O)cn(C3CC3)c12	agar	ATCC 14468		4.12 µM
CCCCCCCCO[C@@H]1O[C@H]([C@H](O)CO)C(O)C1NC(C)=O	absorbance	mc2155		>1.5 µM
COc1ccc(/C=N/NC(=O)c2cnc3cc(F)ccc3c2NC(CSc2ccccc2)CC(=O)N(C)C)cc1	resazurin	ATCC 19420		>100 µg/mL
Cc1noc(C)c1-n1sc(=O)n(CC2CC2)c1=O	broth dilution	mc2155		50 µg/mL
NNC(=O)c1ccncc1		mc2155		5 µg/mL
CSCC[C@H](NS(=O)(=O)c1ccc(C)cc1)C(=O)N/N=C/c1ccccc1Cl	broth dilution / visual reading	ATCC 607		>250 µg/mL
O=C(NCCCOCCOCCOCCNC(=O)c1ccc2c(c1)B(O)OC2)c1ccc2c(c1)B(O)OC2	visual reading / absorbance	mc2155		390–780 µM
CCCCC/C=C/CCCCc1cc(=O)c2ccccc2n1C	MTT	ATCC 19420		13.9 µM
NC1CCN(CCCCn2ccc(Nc3cc(C(=O)N4CCC(CO)CC4)ccn3)nc2=O)CC1	turbidity			<8 µg/mL
CCCCO[C@@H]1O[C@H]([C@H](O)CO)C(O)C1O	absorbance	mc2155		>2.1 µM
COc1c(N2CCSCC2)c(F)c([N+](=O)[O-])c2c(=O)c(C(=O)O)cn(C3CC3)c12	agar	ATCC 14468		3.68 µM
O=C(O)c1c2n(c3cc(N4CCC(O)(c5ccc(Cl)cc5)CC4)c(F)cc3c1=O)CS2	agar	ATCC 14468 MC2		54.24 µM
COc1c(N2CCC(n3c(=O)[nH]c4cc(Cl)ccc43)CC2)c(F)c([N+](=O)[O-])c2c(=O)c(C(=O)O)cn(C3CC3)c12	agar	ATCC 14468		10.93 µM
CCCCCCCCC(O)[C@@H]1O[C@H]([C@H](O)CNC(=O)c2ccccc2)C(O)C1O	absorbance	mc2155		0.86 µM
CCCCCCCCCCCCCCCC(=O)NC(CCC(=O)O)(CCC(=O)O)CCC(=O)O		mc155		36 µg/mL
CCCCCCCCCCCCN1c2ccccc2Sc2ccccc21	broth dilution	mc2155		>64 µg/mL
COc1c(N2CCN(C(c3ccccc3)c3ccc(Cl)cc3)CC2)c(F)cc2c(=O)c(C(=O)O)cn(C3CC3)c12	agar	ATCC 14468		44.48 µM
COc1ccc2c3conc3c(=O)n(CCCN3C[C@@H]4CN(c5ccc6c(n5)NC(=O)CO6)C(=O)O[C@H]4C3)c2c1	broth dilution	ATCC 19420		≤1 µg/mL
COc1ccc(CC2C3=C(CCCC3)CCN2c2c(F)cc3c(=O)c(C(=O)O)cn(C4CC4)c3c2OC)cc1	agar	ATCC 14468		2.93 µM
CCCCCCCC(CCCCCCC)NC(=O)NC(CCC(=O)O)(CCC(=O)O)CCC(=O)O		mc155		36 µg/mL
CC1OC(n2ccc(NC(=O)c3ccc(N)cc3)nc2=O)CCC1OC1OC(C)C(N(C)C)C(O)C1O	broth dilution / agar diffusion			32 µg/mL
Cn1c(=O)sn(-c2ccccc2)c1=O	broth dilution	mc2155		25 µg/mL
NCCCNCc1ccc(Nc2nc(=O)n(CCCCN3CCC(N)CC3)cc2F)nc1	turbidity			<8 µg/mL
CC[C@H](C)[C@@H](NC(=O)[C@@H](CCC(=O)O)NC(=O)[C@H](Cc1cnc[nH]1)NC(=O)[C@H](CC(C)C)NC(=O)[C@H](N)Cc1ccccc1)C(=O)N[C@H]1CCCCNC1=O	resazurin			0.78 µg/mL
COc1ccc(/C=N/NC(=O)c2cnc3cccc(C(F)(F)F)c3c2NC(CSc2ccccc2)CC(=O)N(C)C)cc1	resazurin	ATCC 19420		>100 µg/mL
CO[C@H]1[C@@H](O)[C@H](n2ccc(=O)[nH]c2=O)O[C@@H]1[C@@H](O[C@H]1OC(C(=O)N[C@H]2CCC[C@@H](C)NC2=O)=C[C@H](O)[C@@H]1O)C(N)=O	broth dilution	mc2155		16 µg/mL
O=c1sn(-c2ccc(F)c(Cl)c2)c(=O)n1C1Cc2ccccc2C1	broth dilution	mc2155		0.39 µg/mL
COc1ccc2ccc(=O)n(CCN3C[C@@H]4CN(c5ccc6c(n5)NC(=O)CO6)C(=O)O[C@H]4C3)c2n1	broth dilution	ATCC 19420		≤1 µg/mL
CSCC[C@H](NS(=O)(=O)c1ccc(C)cc1)C(=O)N/N=C/c1ccc([N+](=O)[O-])o1	broth dilution / visual reading	ATCC 607		63.8 µg/mL
CCCCCCCCCCCCCC(=O)NC(CCC(=O)O)(CCC(=O)O)CCC(=O)O		mc155		36 µg/mL
CCc1ccc(/C=N/NC(=O)[C@H](CCSC)NS(=O)(=O)c2ccc(C)cc2)s1	broth dilution / visual reading	ATCC 607		>250 µg/mL
COc1c(N2CCn3cc(C(=O)O)nc3C2)c(F)cc2c(=O)c(C(=O)O)cn(C3CC3)c12	agar	ATCC 14468		7.08 µM
O=C(O)c1c2n(c3cc([N+](=O)[O-])c(N4CCN(Cc5ccc6c(c5)OCO6)CC4)cc3c1=O)CS2	agar	ATCC 14468		6.3 µM
NC1CCN(CCCCn2ccc(Nc3ccc(COCCNCC4CC4)cn3)nc2=O)CC1	turbidity			8–32 µg/mL
CCCCCCCCC(O)[C@@H]1O[C@H]([C@H](O)CF)C(O)C1O	absorbance	mc2155		1.5 µM
CNCCCOCc1ccc(Nc2ccn(CCCCN3CCC(N)CC3)c(=O)n2)nc1	turbidity			<8 µg/mL
COc1ccc(CC2C3=C(CCCC3)CCN2c2cc3c(cc2F)c(=O)c(C(=O)O)c2n3CS2)cc1	agar	ATCC 14468 MC2		98.69 µM
Cc1onc(-c2c(F)cccc2F)c1C(=O)N1CCN(c2cc3c(=O)c(C(=O)O)c4n(c3cc2F)CS4)CC1	agar	ATCC 14468		89.85 µM
NNC(=O)c1ccncc1	MTT / broth dilution	ATCC 14468		>1024 µg/mL
CCCCCCCCC(O)[C@@H]1O[C@H]([C@H](O)CO)C(O)C1O	absorbance	mc2155		0.86 µM
O=C(O)c1c2n(c3cc([N+](=O)[O-])c(N4CCC5(CC4)OCCO5)cc3c1=O)CS2	agar	ATCC 14468		59.61 µM
Cc1nc(-c2ccc(F)cc2)sc1-c1cn2ccccc2n1	broth dilution / absorbance	mc2155		27.9 µg/mL
O=c1sn(-c2ccc([N+](=O)[O-])cc2Cl)c(=O)n1C1Cc2ccccc2C1	broth dilution	mc2155		50 µg/mL
C=C1C2CCC(C(=O)O)[C@@]23CC[C@H](C3)C1(C)C	agar diffusion	CSC101	Ciprofloxacin-resistant	6.25 µg/mL
Cc1nc(-c2ccccc2)sc1-c1cn2ccccc2n1	broth dilution / absorbance	mc2155		>50 µg/mL
O=C(O)c1c2n(c3cc([N+](=O)[O-])c(N4CCN(C(=O)C5COc6ccccc6O5)CC4)cc3c1=O)CS2	agar	ATCC 14468		47.66 µM
CNCCC[C@@H](CN[C@H](CN)Cc1cccc2ccccc12)NCCc1cccc2ccccc12	absorbance	mc2155		6.25 µM
CN(C)C(=O)CC(CSc1ccccc1)Nc1c(C(=O)N/N=C/c2ccc(F)cc2)cnc2cccc(C(F)(F)F)c12	resazurin	ATCC 19420		>100 µg/mL
CSCC[C@H](NS(=O)(=O)c1ccc(C)cc1)C(=O)N/N=C/c1ccc(-c2ccc(Cl)cc2Cl)o1	broth dilution / visual reading	ATCC 607		>250 µg/mL
Cc1noc(C)c1-n1sc(=O)n(-c2ccc(F)cc2)c1=O	broth dilution	mc2155		100 µg/mL
CCCCCCCC/C=C/CCCCCCCC(=O)OCC(COP(=O)(O)OCC1C(O)C(O)C(O)C(CP(=O)(O)O)C1O)OC(=O)CCCCCCC/C=C/CCCCCCCC	broth dilution			>2500 µM
O=C(O)c1c2n(c3cc(N4CCC5(CC4)OCCO5)c([N+](=O)[O-])cc3c1=O)CS2	agar	ATCC 14468 MC2		59.61 µM
CSCC[C@H](NS(=O)(=O)c1ccc(C)cc1)C(=O)N/N=C/c1ccc([N+](=O)[O-])cc1	broth dilution / visual reading	ATCC 607		>250 µg/mL
Cc1nc(-c2ccccc2)sc1-c1cn2cc(Br)ccc2n1	broth dilution / absorbance	mc2155		25 µg/mL
CO[C@@H]1O[C@H]([C@H](O)CO)C(O)C1O	absorbance	mc2155		>2.6 µM
CSCC[C@H](NS(=O)(=O)c1ccc(C)cc1)C(=O)N/N=C/c1sccc1C	broth dilution / visual reading	ATCC 607		>250 µg/mL

For reference, 8 entries again:

structure,read by,strain,changes,result
CO[C@@H]1O[C@H]([C@H](O)CO)C(O)C1O,absorbance,mc2155,,>2.6 µM
Cc1noc(C)c1-n1sc(=O)n(-c2ccc(F)cc2)c1=O,broth dilution,mc2155,,100 µg/mL
NNC(=O)c1ccncc1,MTT / broth dilution,ATCC 14468,,>1024 µg/mL
O=C(O)c1c2n(c3cc([N+](=O)[O-])c(N4CCC5(CC4)OCCO5)cc3c1=O)CS2,agar,ATCC 14468,,59.61 µM
O=c1sn(-c2ccc(F)c(Cl)c2)c(=O)n1C1Cc2ccccc2C1,broth dilution,mc2155,,0.39 µg/mL
COc1ccc2c3conc3c(=O)n(CCCN3C[C@@H]4CN(c5ccc6c(n5)NC(=O)CO6)C(=O)O[C@H]4C3)c2c1,broth dilution,ATCC 19420,,≤1 µg/mL
CCCCCCCCCCCCCCCCCCCCCC(=O)NC(CCC(=O)O)(CCC(=O)O)CCC(=O)O,,mc155,,27 µg/mL
Cc1nc(-c2ccccc2)sc1-c1cn2ccccc2n1,broth dilution / absorbance,mc2155,,>50 µg/mL

An empty or dashed field is not shown. Two numbers with a dash give a range or band.